Experimental data reported in ChEMBL document CHEMBL3259574, “Environmentally benign synthesis and antimicrobial study of novel chalcogenophosphates” (Bioorg Med Chem Lett, 2014).

Test system: Candida albicans
Test: Antimicrobial activity against Candida albicans MTCC227 assessed as zone diameter at 100 ug/ml after 24 hrs incubation by agar diffusion as say cup method
Assay type: functional
Procedure, shortened: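 Agar cup diffusion on nutrient agar plates. Solidified plates were spread with 0.1% cell suspension (10^6 CFU/mL) of the test organism and held 15 min, then 6 mm wells were cut. Samples at 100 µg/mL in DMSO went into the wells, and plates were incubated 24 h at 30–35 °C. Inhibition zone diameter was measured in mm by digital vernier caliper. Triplicate parallel sets gave mean ± standard deviation, compared by ANOVA with Tukey test (P < 0.01).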

| Compound | inhibition zone (IZ) [mm] |
| --- | --- |
| CC(C)OP(=O)(OC(C)C)[Se]Cc1ccccc1 | 27.4 |
| CCOP(=O)(OCC)[Se]Cc1ccccc1 | 30.2 |
| COP(=O)(OC)[Se]Cc1ccccc1 | 30.5 |
